Measured values from several laboratories, pooled; numbers as filed in NIAID ChemDB.

All rows: tests in culture; agent: Hepatitis B virus

Rows are shuffled and stem from different studies. Inhibition is in % at the dose shown (toxicity tests: loss of growth or viability). Two numbers with a dash give a range or band. ECn is the concentration giving n% inhibition of infection, replication or growth. An empty or dashed field is not shown.

SMILES	cell line	method	endpoint	tested at	result
CC(=O)Nc1nc(N)nc2c1ncn2[C@H]1CO[C@@H](CO)O1	HepAD38	PCR	EC90		>10 µM
Cc1c(C(=O)C(=O)NC(C)(C)c2ccc(F)cn2)c(C)n(C)c1C(=O)Nc1ccc(F)c(C(F)(F)F)c1	HepG2.2.15	PCR	EC50		0.001–0.0099 µM
CCCCCC(=O)Nc1nc(N)nc2c1ncn2[C@H]1CO[C@@H](CO)O1	HepAD38	PCR	EC90		>10 µM
COc1ccc(-n2c(C(=O)NCc3ccc(Cl)cc3)c3n(c2=O)CCN(C(=O)c2ccc(Br)c(Cl)c2)C3)cc1	HepG2.117	PCR	EC50		0.1–0.5 µM
Cc1c(C(=O)C(=O)NC2(c3ncc[nH]3)COC2)c(C)n(C)c1C(=O)Nc1ccc(F)c(C(F)(F)F)c1	HepG2.2.15	PCR	EC50		0.001–0.0099 µM
O=C(NCc1ccc(-n2ccnc2)cc1)c1c2n(c(=O)n1-c1ccc(OCC(F)(F)F)cc1)CCN(C(=O)c1ccc(Br)c(Cl)c1)C2	HepG2.117	PCR	EC50		0.1–0.5 µM
N=c1nc(N)c2ncn([C@@H]3O[C@H](CO)[C@@H](O)[C@H]3O)c2c(N)n1	2.2.15		inhibition	10 µM	0%
Cc1c(C(=O)C(=O)NC2(c3cn[nH]c3)COC2)c(C)n(C)c1C(=O)Nc1ccc(F)c(C#N)c1	HepG2.2.15	PCR	EC50		0.001–0.0099 µM
O=C(NCc1ccccc1-n1ccnc1)c1c2n(c(=O)n1-c1ccc(OCC(F)(F)F)cc1)CCN(C(=O)c1ccc(Br)c(Cl)c1)C2	HepG2.117	PCR	EC50		0.5–5 µM
Oc1ccc([C@H]2Oc3cccc(O)c3C(c3c(O)cc(O)c4c3O[C@H](c3ccc(O)c(O)c3)[C@@H](O)C4)[C@H]2O)cc1O	HepG2.2.15	ELISA / antigen	inhibition	30 µM	62.3%
O=C(N/C(C(=O)N1CCCCC1)=C(/Cl)c1ccccc1)c1ccccc1	HepG2		EC90		10.8 µM
Cc1cn([C@H]2C[C@H](N=[N+]=[N-])[C@@H](CO)O2)c(=O)[nH]c1=O	HepAD38	PCR	EC90		>10 µM
C#C[C@@H](CCO)NC(=O)C(=O)c1c(C)c(C(=O)Nc2ccc(F)c(C#N)c2)n(C)c1C	HepG2.2.15	PCR	EC50		0.001–0.0099 µM
CCCCCCCC/C=C\CCCCCCCC(=O)Nc1nc(N)nc2c1ncn2[C@H]1CO[C@@H](CO)O1	HepAD38	PCR	EC90		>10 µM
O=C(NCc1ccc(OC(F)(F)F)cc1F)c1c2n(c(=O)n1-c1ccc(OCC(F)(F)F)cc1)CCN(C(=O)c1ccc(Br)c(Cl)c1)C2	HepG2.117	PCR	EC50		0.5–5 µM
O=C(O[C@@H]1Cc2c(O)cc(O)cc2O[C@@H]1c1cc(O)c(O)c(O)c1)c1cc(O)c(O)c(O)c1		PCR	inhibition	50 µM	63%
CCCCCCCC(=O)Nc1nc(N)nc2c1ncn2[C@H]1CO[C@@H](COP(=O)(N[C@@H](C)C(=O)OCC)Oc2ccccc2)O1	HepAD38	PCR	EC90		≥10 µM

2 of the rows above, restated:

SMILES	cell line	method	endpoint	tested at	result
COc1ccc(-n2c(C(=O)NCc3ccc(Cl)cc3)c3n(c2=O)CCN(C(=O)c2ccc(Br)c(Cl)c2)C3)cc1	HepG2.117	PCR	EC50		0.1–0.5 µM
CCCCCC(=O)Nc1nc(N)nc2c1ncn2[C@H]1CO[C@@H](CO)O1	HepAD38	PCR	EC90		>10 µM